Compound potency records, mixed from different reports. Data source: NIAID ChemDB in PubChem.

Common to all: toxicity to cultured cells; cells: MDBK; read-out: CC50

An empty or dashed field is not shown.

| structure | method | value |
|---|---|---|
| CC1(C)OCC(CCCCN2C[C@H](O)[C@@H](O)[C@H](O)[C@H]2CO)O1 | - | >1000 µM |
| OC[C@@H]1CC[C@H](n2cnc3c(NC4CCCCCC4)ncnc32)O1 | - | 244 µM |
| NC(=O)c1ncn([C@@H]2O[C@H](CO)[C@@H](O)[C@H]2O)c1O | - | >100 µM |
| OC[C@H]1O[C@@H](n2cnc3c(NC4CC4)nc(Cl)nc32)C[C@@H]1O | - | <50 µM |
| CC12COS(=O)(=O)CC1=C(c1ccc(F)c(F)c1)C(=O)O2 | MTT | >20 µM |
| OC[C@@H]1[C@@H](O)[C@H](O)[C@@H](O)CN1CCCCC1CCCCC1 | - | 400 µM |
| COc1c(C)c2c(c(O)c1C/C=C(\C)CO)C(=O)OC2 | - | >100 µM |
| COc1cc(O)c(CC=C(C)C)c2c1C(=O)CC(c1ccc(O)cc1)O2 | - | 2.5 µg/mL |
| NC(=O)c1ncn([C@@H]2O[C@H](CO)[C@@H](O)[C@H]2O)n1 | MTT | 5 µM |
| CCc1nc(N)nc(N)c1-c1ccc(Cl)cc1 | - | 338 µg/mL |
| CC12COS(=O)(=O)CC1=C(c1ccc(Cl)cc1)C(=O)O2 | MTT | >20 µM |
| COc1c(C)c2c(c(O)c1C/C=C(\C)CCCO)C(=O)OC2 | - | 60 µM |
| CCCOCCCCCCN1C[C@H](O)[C@@H](O)[C@H](O)[C@H]1CO | - | >2000 µM |
| CCCCN1C[C@H](O)[C@@H](O)[C@H](O)[C@H]1CO | - | >300 µM |
| COC(=O)Cc1c(O)c2c(c(C)c1OC)COC2=O | - | >100 µM |
| OC[C@H]1NC[C@H](O)[C@@H](O)[C@@H]1O | - | >5000 µM |
| O[C@H]1[C@H](O)[C@@H](O)CN2CC[C@H](O)[C@H]12 | XTT | >1000 µM |
| COCCCCCCCCCN1C[C@H](O)[C@@H](O)[C@H](O)[C@H]1CO | - | >2000 µM |
| NC(=O)C1=CSN([C@@H]2O[C@H](COP(=O)([O-])CP(=O)([O-])OCC3OC(n4cnc5c(N)ncnc54)C(O)C3O)[C@@H](O)[C@H]2O)N1 | - | >100 µM |
| CC1(C)C2CCC(N3C[C@H](O)[C@@H](O)[C@H](O)[C@H]3CO)C1C2 | - | >1000 µM |
| OC[C@@H]1CC[C@H](n2cnc3c(NC4CC4)nc(Cl)nc32)O1 | - | 180 µM |
| CC(C)(C)CCCCCCCN1C[C@H](O)[C@@H](O)[C@H](O)[C@H]1CO | - | 500 µM |
| NC(=O)c1cccc([C@@H]2O[C@H](CO)[C@@H](O)[C@H]2O)c1 | - | 6 µM |

3 of the rows above, restated:

structure | method | value
NC(=O)C1=CSN([C@@H]2O[C@H](COP(=O)([O-])CP(=O)([O-])OCC3OC(n4cnc5c(N)ncnc54)C(O)C3O)[C@@H](O)[C@H]2O)N1 | - | >100 µM
COc1c(C)c2c(c(O)c1C/C=C(\C)CCCO)C(=O)OC2 | - | 60 µM
O[C@H]1[C@H](O)[C@@H](O)CN2CC[C@H](O)[C@H]12 | XTT | >1000 µM

Conditions beyond the fields shown may differ between rows. CCn is the concentration with n% toxicity to the cells.